Pooled drug test results. Numbers come from NIAID ChemDB, via PubChem.

All rows: toxicity to cultured cells; cell line: MT-4; read-out: CC50

CCn is the concentration with n% toxicity to the cells. Lines come from different laboratories, so protocols vary. a–b is a range or a potency band. An empty or dashed field is not shown.

O=C1c2ccccc2N(COCc2ccccc2)S(=O)(=O)N1Cc1ccccc1 ; value: 18.6–19.8 µM
Nc1ncnc2c1ncn2[C@@H]1O[C@H](CO)[C@H]1N ; value: >100 µg/mL
O=C1c2ccccc2N(Cc2ccccc2Cl)S(=O)(=O)N1Cc1ccccc1 ; value: 19.9–22.7 µM
C/C(=N\Nc1nc(-c2ccc(Br)cc2)cs1)c1ccc2c(c1)OCO2 ; method: MTT ; value: 41.93 µM
Cn1cc(C(=O)O)c(=O)c2cc(N)c(N3CCN(c4nc5ccccc5s4)CC3)nc21 ; method: MTT ; value: 0.34 µM
CC(=O)OCC1=C[C@@H]2C(=O)[C@]3(C=C(C)[C@H](OC(C)=O)[C@@]3(O)[C@@H]1OC(C)=O)[C@H](C)C[C@@H]1[C@H]2C1(C)C ; value: >211 µM
CCN1C[C@H](C)N2C(=C(O)C3C(=O)N4Cc5ccc(F)cc5OCCCS(=O)(=O)N(C)C(=N4)C32)C1=O ; value: 11.3 µM
CC(C)CCS(=O)(=O)c1c(C(=O)NCc2nccn2C)[nH]c2ccc(Cl)cc12 ; method: microscopy ; value: >10 µM
Cc1cn([C@H]2C[C@H](N=[N+]=[N-])[C@@H](COP(=O)(O)C(N)=O)O2)c(=O)[nH]c1=O ; method: MTT ; value: >300 µM
COC(=O)c1ccc(C2(C)OS(=O)(=O)C=C2N)cc1 ; value: >125 µg/mL
[N-]=[N+]=N[C@@]1(CO)COC(n2ccc(N)nc2=O)C1 ; value: >100 µg/mL
Cc1cc(Cl)cc(C(=O)c2c(C(C)C)c(=O)[nH]c(=O)n2Cc2ccnc(C#N)c2)c1 ; method: MTT ; value: 8.55 µg/mL
Cn1cc(C(=O)O)c(=O)c2sc(N3CCN(c4nc5ccccc5s4)CC3)nc21 ; method: MTT ; value: 2.05 µM
C=C1[C@H](n2cnc3c(N)ncnc32)O[C@@H]1CO ; value: >100 µg/mL
COc1cccc2c1nc(-c1ccccc1F)n2Cc1ccncc1 ; value: 65.8 µg/mL
C=Cn1cc(C(=O)O)c(=O)c2ccc(N3CCN(c4nc5ccccc5s4)CC3)nc21 ; method: MTT ; value: 0.44 µM
CC1(C)C(N)=C(c2ccccc2)S(=O)(=O)N1Cc1cccc(Cl)c1 ; value: >125 µg/mL
O=C1c2ccccc2N(COCc2ccccc2)S(=O)(=O)N1COCc1ccccc1 ; value: 22.3–23.7 µM
CCN1C[C@H](C)N2C(=C(O)C3C(=O)N4Cc5ccc(F)cc5C(=O)NCCCCCCN(C)C(=N4)C32)C1=O ; value: 0.8 µM
CCc1c(C(=O)c2cc(C)cc(C)c2)n(Cc2ccccc2)c(=O)[nH]c1=O ; method: MTT ; value: 5.78 µg/mL
Cn1cc(C(=O)O)c(=O)c2cncc(N3CCN(c4nc5ccccc5s4)CC3)c21 ; method: MTT ; value: 25.57 µM
CCc1c(C(=O)c2cc(C)cc(C)c2)n(Cc2ccncc2)c(=O)[nH]c1=O ; method: MTT ; value: 64 µg/mL
CCOc1cc(/C=C2\SC(=O)N(CC(=O)c3ccccc3)C2=O)c(Br)cc1OCc1ccc(C(=O)O)cc1 ; value: 76.82 µg/mL
COc1ccc(Cn2c(C(=O)c3cc(C)cc(C)c3)c(C(C)C)c(=O)[nH]c2=O)cc1 ; method: MTT ; value: 7.46 µg/mL
CCOC(=O)c1[nH]c2ccc(Cl)cc2c1S(=O)(=O)C1CC1 ; method: microscopy ; value: >10 µM
CC1=C(N)C(C)(Cc2ccccc2)OS1(=O)=O ; value: >125 µg/mL
O=C1c2ccccc2N(Cc2ccccc2)S(=O)(=O)N1Cc1ccccc1Cl ; value: 32.5–39.1 µM
NC(=O)c1[nH]c2ccc(Cl)cc2c1S(=O)(=O)CCCC(F)(F)F ; method: microscopy ; value: >10 µM
C=CS(=O)(=O)N1CCC(NS(=O)(=O)c2c(C(N)=O)[nH]c3ccc(Br)cc23)C1 ; method: MTT ; value: 22 µM
C=C1CN(S(=O)(=O)c2ccc(C)cc2)CCCN(Cc2ccccc2)CCCN(S(=O)(=O)c2ccc(C)cc2)C1 ; value: >30 µM
O=C1c2ccccc2N(Cc2ccc(Cl)c(Cl)c2)S(=O)(=O)N1Cc1ccccc1 ; value: 27.7–27.8 µM
COc1cccc2c1nc(-c1ccccc1F)n2Cc1ccc(Cl)s1 ; value: 5 µg/mL
Cc1cc(Cn2c(C(=O)c3cc(F)cc(F)c3)c(C(C)C)c(=O)[nH]c2=O)cc(C)n1 ; method: MTT ; value: 87.2 µg/mL
O=S1(=O)N=C(OCc2ccccc2)c2ccccc2N1Cc1ccc(Cl)c(Cl)c1 ; value: >250 µM
Cc1cn([C@H]2C[C@H](N=[N+]=[N-])[C@@H](COP(=O)(O)CO)O2)c(=O)[nH]c1=O ; method: MTT ; value: >500 µM
CC(C)c1c(C(=O)c2cc(F)cc(F)c2)n(Cc2cccnc2)c(=O)[nH]c1=O ; method: MTT ; value: 29.81 µg/mL
COc1cc([C@H]2O[C@@H](c3ccc(O)cc3)[C@H](C)[C@@H]2C)ccc1O ; method: MTT ; value: 83.18 µg/mL
Nc1ncnc2c1ncn2[C@H]1C[C@](N)(CO)CO1 ; value: >100 µg/mL
Nc1ncnc2c1ncn2[C@@H]1O[C@H](CO)[C@H]1F ; value: >100 µg/mL
CCOC(=O)c1[nH]c2ccc(Cl)cc2c1SCCC(F)(F)F ; method: microscopy ; value: >10 µM
COP(=O)(c1cc(C)cc(CCC#N)c1)c1c(C(N)=O)[nH]c2ccc(Cl)c(F)c12 ; method: MTS ; value: 18.6 µM
Cc1cc(C)cc(S(=O)(=O)c2c(C(=O)NCC(=O)NN)[nH]c3ccc(Cl)cc23)c1 ; method: MTT ; value: ≥200 µM
O=C1c2ccccc2N(Cc2ccccc2)S(=O)(=O)N1Cc1ccc(Cl)cc1 ; value: 46.5–159.5 µM
Cn1c2ccccc2c(=O)c2c(O)cccc21 ; value: 15 µg/mL
CCc1c(C(=O)c2cc(C)cc(CF)c2)n(Cc2ccncc2)c(=O)[nH]c1=O ; method: MTT ; value: 52.1 µg/mL
COc1cc2c(c(O)c1OC)-c1c(cc3c(c1O)OCO3)C[C@H](C)[C@H](C)C2 ; method: MTT ; value: 87.1 µg/mL
COc1cccc2c1nc(-c1ccccc1F)n2Cc1ccc(C(F)(F)F)cc1 ; value: >5 µg/mL
CC1=C(N)C(C)(C)N(Cc2ccccc2)S1(=O)=O ; value: >125 µg/mL
COc1cccc2c1nc(-c1ccccc1F)n2Cc1cccc2ccccc12 ; value: >5 µg/mL
CCc1c(C(=O)c2cc(F)cc(F)c2)n(Cc2ccccn2)c(=O)[nH]c1=O ; method: MTT ; value: 93.2 µg/mL
CCCCCCCCCCCCCCCC(=O)OC[C@H]1O[C@@H](n2cnc3c(N)ncnc32)[C@@H]1CO ; value: >3 µg/mL
Brc1ccc(-c2csc(N/N=C/c3ccncc3)n2)cc1 ; method: MTT ; value: 125 µM
CC(=O)Nc1ccc(SSc2ccc(NC(C)=O)cc2C(N)=O)c(C(N)=O)c1 ; value: >120 µM
Cc1ccc(/C=N/Nc2nc(-c3ccc(Br)cc3)cs2)cc1 ; method: MTT ; value: 125 µM
CCOC(=O)c1[nH]c2ccc(Cl)cc2c1SCC(F)(F)F ; method: microscopy ; value: >10 µM
C(=N\Nc1nc(-c2ccccc2)cs1)/c1cccnc1 ; method: MTT ; value: 11.6 µM
Nc1ccn(C2C[C@](N)(CO)CO2)c(=O)n1 ; value: >100 µg/mL
CC1(C)C(N)=C(c2ccccc2)S(=O)(=O)N1Cc1ccccc1 ; value: >125 µg/mL
COc1cc(O)c2c(c1)C(=O)c1c(cc3c(c1O)-c1c(cc(C)c(C(=O)N[C@H](C)C(=O)O)c1O)[C@H](O[C@@H]1O[C@H](C)[C@H](O)[C@H](O[C@@H]4OC[C@@H](O)[C@H](O)[C@H]4O)[C@H]1O)[C@H]3O)C2=O ; value: >100 µg/mL
CCC(CC)Cn1c(-c2ccccc2F)nc2c(OC)cccc21 ; value: 11.68 µg/mL
O=C1c2ccccc2N(Cc2ccccc2)S(=O)(=O)N1COCc1ccccc1 ; value: 35.8–45 µM

Repeating the final 5 entries:

compound,method,value
Nc1ccn(C2C[C@](N)(CO)CO2)c(=O)n1,,>100 µg/mL
CC1(C)C(N)=C(c2ccccc2)S(=O)(=O)N1Cc1ccccc1,,>125 µg/mL
COc1cc(O)c2c(c1)C(=O)c1c(cc3c(c1O)-c1c(cc(C)c(C(=O)N[C@H](C)C(=O)O)c1O)[C@H](O[C@@H]1O[C@H](C)[C@H](O)[C@H](O[C@@H]4OC[C@@H](O)[C@H](O)[C@H]4O)[C@H]1O)[C@H]3O)C2=O,,>100 µg/mL
CCC(CC)Cn1c(-c2ccccc2F)nc2c(OC)cccc21,,11.68 µg/mL
O=C1c2ccccc2N(Cc2ccccc2)S(=O)(=O)N1COCc1ccccc1,,35.8–45 µM